Data on 1 molecule can be found in PMC6691772, “Novel phthalimide based analogues: design, synthesis, biological evaluation, and molecular docking studies” (Journal of Enzyme Inhibition and Medicinal Chemistry, 2019).

Values after ≈ are worked out from the molar mass of the structure shown.

The test system of assay [1] is S. pneumonia RCMB 010010. Briefly: Minimum inhibitory concentration, modified agar well diffusion. Format: cell-based, Streptococcus pneumoniae. To be noted: mean of three values. (A growth-free zone around the sample is the usual read-out of agar diffusion tests.)
For assay [2], the system named is P. aeruginosa RCMB 010043. Description: Agar well diffusion, inhibition zone. The format is cell-based, Pseudomonas aeruginosa. Conditions: 1 mg/mL, mean of three values.
Assay [3] has as its system B. subtilis RCMB 010067. Briefly: Agar well diffusion, inhibition zone. Format: cell-based, Bacillus subtilis. To be noted: 1 mg/mL, mean of three values.
Assay [4] deals with S. pneumonia RCMB 010010. Briefly: Agar well diffusion, inhibition zone. Format: cell-based, Streptococcus pneumoniae. Conditions: 1 mg/mL, mean of three values.
The subject of assay [5] is B. subtilis RCMB 010067. Description: Minimum inhibitory concentration, modified agar well diffusion. Format: cell-based, Bacillus subtilis. To be noted: mean of three values.
Assay [6] concerns E. coli RCMB 010052. Description: Agar well diffusion, inhibition zone. Format: cell-based, Escherichia coli. To be noted: 1 mg/mL, mean of three values.

In the case of `C[C@@H]1[C@H](O)[C@@H](C)/C=C/C=C/C=C/C=C/C=C/C=C/C=C/[C@H](O[C@@H]2O[C@H](C)[C@@H](O)[C@H](N)[C@@H]2O)C[C@@H]2O[C@](O)(C[C@@H](O)C[C@@H](O)[C@H](O)CC[C@@H](O)C[C@@H](O)CC(=O)O[C@H]1C)C[C@H](O)[C@H]2C(=O)O`, the “MIC (Mean ± SEM)” value in assay [1] was determined as 0.98 ± 0.47 µg/mL (≈ 1.06 µM); in assay [5], 0.49 ± 0.36 µg/mL (≈ 0.53 µM). Besides, the “Mean diameter of inhibition zone (Mean ± SEM)” value in assay [2], in assay [3], in assay [4] and in assay [6] was “–” throughout.
